Results of unrelated studies side by side (data: NIAID ChemDB).

Common to all: tests in culture; agent: Mycobacterium avium intracellulare; read-out: MIC

Conditions beyond the fields shown may differ between rows.

smiles,strain or isolate,result
CCCCCCCCCCCCCCN(C)C(=O)O[C@H]1C(O[C@@H]2[C@@H](C)[C@H](O[C@H]3C[C@@](C)(OC)[C@@H](OC(C)=O)[C@H](C)O3)[C@@H](C)C(=O)O[C@H](CC)[C@@](C)(O)[C@H](O)[C@@H](C)/C(=N/OCCCC3CCCCC3)[C@H](C)CC2(C)O)O[C@H](C)C[C@@H]1N(C)C,20073,0.1 µg/mL
CCNC(=O)[C@@H](NC(=O)Cc1ccccc1)[C@@H]1N[C@@H](C(=O)NCCNC(=O)[C@@H]2N[C@@H]([C@H](NC(=O)Cc3ccccc3)C(=O)NCC)SC2(C)C)C(C)(C)S1,CIPT 140310054,50 µg/mL
CCCCCCCCCCCCCCCCO/N=C1\[C@H](C)CC(C)(O)[C@H](O[C@@H]2O[C@H](C)C[C@H](N(C)C)[C@H]2O)[C@@H](C)[C@H](OC2C[C@@](C)(OC)[C@@H](O)[C@H](C)O2)[C@@H](C)C(=O)O[C@H](CC)[C@@](C)(O)[C@H](O)[C@H]1C,20066 (clarithromycin-susceptible),>50 µg/mL
CC(=O)NC[C@H]1CN(c2ccc(N3CCN(c4ccc([N+](=O)[O-])s4)CC3)c(F)c2)C(=O)O1,559/97,0.25 µg/mL
CCCCCCCCNNC(=O)O[C@H]1[C@H](O[C@@H]2[C@@H](C)[C@H](O[C@H]3C[C@@](C)(OC)[C@@H](OC(C)=O)[C@H](C)O3)[C@@H](C)C(=O)O[C@H](CC)[C@@](C)(O)[C@H](O)[C@@H](C)/C(=N/OCCCC3CCCCC3)[C@H](C)CC2(C)O)O[C@H](C)C[C@@H]1N(C)C,20066 (clarithromycin-susceptible),6.25 µg/mL
CC[C@H]1OC(=O)[C@H](C)[C@@H](O[C@H]2C[C@@](C)(OC)[C@@H](OC(C)=O)[C@H](C)O2)[C@H](C)[C@@H](OC2O[C@H](C)C[C@H](N(C)C)[C@H]2OC(=O)NC)C(C)(O)C[C@@H](C)/C(=N\OCCCC2CCCCC2)[C@H](C)[C@@H](O)[C@]1(C)O,20066,3.13 µg/mL
CC[C@H]1OC(=O)[C@H](C)[C@@H](OC2C[C@@](C)(OC)[C@@H](O)[C@H](C)O2)[C@H](C)[C@@H](O[C@@H]2O[C@H](C)C[C@H](N(C)C)[C@H]2O)C(C)(O)C[C@@H](C)/C(=N\OCCN(C)c2ccccc2)[C@H](C)[C@@H](O)[C@]1(C)O,20066 (clarithromycin-susceptible),1.56 µg/mL
CO[C@H]1/C=C/O[C@@]2(C)Oc3c(C)c(O)c4c(O)c(c5c(c4c3C2=O)NC2(CCN(CC(C)C)CC2)N=5)=NC(=O)/C(C)=C\C=C\[C@H](C)[C@H](O)[C@@H](C)[C@@H](O)[C@@H](C)[C@H](OC(C)=O)[C@@H]1C,109,0.125 µg/mL
C[C@@H]1CN(c2c(F)c(N)c3c(=O)c(C(=O)O)cn(C4CC4)c3c2F)C[C@H](C)N1,N-475 (HIV-),0.25 µg/mL
CC[C@H]1OC(=O)[C@H](C)[C@@H](OC(=O)Cc2cccnc2)[C@H](C)[C@@H](O[C@@H]2O[C@H](C)C[C@H](N(C)C)[C@H]2O)C(C)(O)C[C@@H](C)/C(=N\OCCCOc2ccccc2)[C@H](C)[C@@H](O)[C@]1(C)O,20066 (clarithromycin-susceptible),3.13 µg/mL
CCNC(=O)O[C@H]1C(O[C@@H]2[C@@H](C)[C@H](O[C@H]3C[C@@](C)(OC)[C@@H](OC(C)=O)[C@H](C)O3)[C@@H](C)C(=O)O[C@H](CC)[C@@](C)(O)[C@H](O)[C@@H](C)/C(=N/OCCCC3CCCCC3)[C@H](C)CC2(C)O)O[C@H](C)C[C@@H]1N(C)C,20066,12.5 µg/mL
CC[C@H]1OC(=O)[C@H](C)[C@@H](O[C@H]2C[C@@](C)(OC)[C@@H](OC(C)=O)[C@H](C)O2)[C@H](C)[C@@H](O[C@@H]2O[C@H](C)C[C@H](N(C)C)[C@H]2O)C(C)(O)C[C@@H](C)/C(=N\OCCCCCc2ccccc2)[C@H](C)[C@@H](O)[C@]1(C)O,20066 (clarithromycin-susceptible),1.56 µg/mL
CO[C@H]1/C=C/O[C@@]2(C)Oc3c(C)c(O)c4c(=O)c(c5oc6cc(N7CCN(CC(C)C)CC7)cc(=O)c6nc5c4c3=C2O)NC(=O)/C(C)=C\C=C\[C@H](C)[C@H](O)[C@@H](C)[C@@H](O)[C@@H](C)[C@H](OC(C)=O)[C@@H]1C,N-752 (HIV-),0.016 µg/mL
CCCCCCC(=O)O[C@H]1[C@H](C)OC(O[C@H]2[C@H](C)[C@@H](O[C@@H]3O[C@H](C)C[C@H](N(C)C)[C@H]3O)C(C)(O)C[C@@H](C)/C(=N\OCCCOc3ccccc3)[C@H](C)[C@@H](O)[C@](C)(O)[C@@H](CC)OC(=O)[C@@H]2C)C[C@@]1(C)OC,20066 (clarithromycin-susceptible),0.39 µg/mL
CN[C@@H]1[C@H](O[C@H]2[C@H](O[C@H]3[C@H](O)[C@@H](O)[C@H](N=C(N)N)[C@@H](O)[C@@H]3N=C(N)N)O[C@@H](C)[C@]2(O)C=O)O[C@@H](CO)[C@H](O)[C@H]1O,N-752 (HIV-),0.125 µg/mL
C[C@@H](O)[C@H]1C(=O)N2C(C(=O)O)=C(SCCN=CN)C[C@H]12,CIPT 140310031,2 µg/mL
CC(C)N=c1cc2n(-c3ccc(Cl)cc3)c3ccccc3nc-2cc1Nc1ccc(Cl)cc1,97002,1 µg/mL
CC[C@H]1OC(=O)[C@H](C)[C@@H](OC(=O)Cc2ccc[nH]2)[C@H](C)[C@@H](O[C@@H]2O[C@H](C)C[C@H](N(C)C)[C@H]2O)C(C)(O)C[C@@H](C)/C(=N\OCCCOc2ccccc2)[C@H](C)[C@@H](O)[C@]1(C)O,20066 (clarithromycin-susceptible),1.56 µg/mL
CO[C@H]1/C=C/O[C@@]2(C)Oc3c(C)c(O)c4c(O)c(c5c(c4c3C2=O)NC2(CCN(CC(C)C)CC2)N=5)=NC(=O)/C(C)=C\C=C\[C@H](C)[C@H](O)[C@@H](C)[C@@H](O)[C@@H](C)[C@H](OC(C)=O)[C@@H]1C,CIPT 140310030,0.1 µg/mL
CC/C=C/CCNC(=O)O[C@H]1C(O[C@@H]2[C@@H](C)[C@H](O[C@H]3C[C@@](C)(OC)[C@@H](OC(C)=O)[C@H](C)O3)[C@@H](C)C(=O)O[C@H](CC)[C@@](C)(O)[C@H](O)[C@@H](C)/C(=N/OCCCC3CCCCC3)[C@H](C)CC2(C)O)O[C@H](C)C[C@@H]1N(C)C,20066,0.2 µg/mL
NNC(=O)c1ccncc1,N-486 (HIV-),2 µg/mL
Cc1onc(-c2ccccc2Cl)c1C(=O)N[C@@H]1C(=O)N2[C@@H]1SC(C)(C)[C@@H]2C(=O)O,CIPT 140310031,75 µg/mL

For reference, 2 entries again:

smiles | strain or isolate | result
CC[C@H]1OC(=O)[C@H](C)[C@@H](O[C@H]2C[C@@](C)(OC)[C@@H](OC(C)=O)[C@H](C)O2)[C@H](C)[C@@H](OC2O[C@H](C)C[C@H](N(C)C)[C@H]2OC(=O)NC)C(C)(O)C[C@@H](C)/C(=N\OCCCC2CCCCC2)[C@H](C)[C@@H](O)[C@]1(C)O | 20066 | 3.13 µg/mL
NNC(=O)c1ccncc1 | N-486 (HIV-) | 2 µg/mL